Measured values from several laboratories, pooled; numbers as filed in NIAID ChemDB.

Shared fields: tests in culture; agent: HIV-1; cells: MT-4; endpoint: fold resistance

Blank or dashed fields: not listed here. Rows are shuffled and stem from different studies. Two numbers with a dash give a range or band. Fold resistance: result on the changed form divided by that on wild type.

structure | strain or isolate | mutations | read by | result
Cc1cc(C)cc(S(=O)(=O)c2c(C(=O)NCCO)[nH]c3ccc(Cl)cc23)c1 | - | RT-K103N Y181C | cytopathic effect / MTT | 500
CCc1c(Cc2cc(Cl)cc(Cl)c2)n(COC2CCc3ccccc32)c(=O)[nH]c1=O | NNRTI-resistant (RT K103N Y181C) A17 | RT-K103N Y181C | cytopathic effect / MTT | 200
O=C(NNCCO)c1[nH]c2ccc(Cl)cc2c1S(=O)(=O)c1ccccc1 | - | RT-K103N Y181C | cytopathic effect / MTT | >2000
CCc1c(Cc2c(Cl)cccc2Cl)nc(SC/C=C/c2ccc(C#N)cc2)[nH]c1=O | NNRTI-resistant | RT-K103N | cytopathic effect / MTT | 20.12
CCc1c(Cc2cc(Cl)cc(Cl)c2)n(COC/C(C)=C/c2ccccc2)c(=O)[nH]c1=O | NNRTI-resistant (RT K103N Y181C) A17 | RT-K103N Y181C | cytopathic effect / MTT | >333
CC(C)=CCN1Cc2cc(Cl)cc3[nH]c(=O)n(c23)C[C@@H]1C | IIIB | RT-Y181C | cytopathic effect / XTT | 496
CC(C)CN(C[C@@H](O)[C@H](Cc1ccccc1)NC(=O)O[C@H]1CO[C@H]2OCC[C@H]21)S(=O)(=O)c1ccc2c(c1)/C(=C/c1ccc(-c3ccccn3)cc1)C(=O)N2 | F | PR-L10F M46I M71V I84V | cytopathic effect / MTT | 6.3
CC(C)CN(C[C@@H](O)[C@H](Cc1ccccc1)NC(=O)O[C@H]1CCOC1)S(=O)(=O)c1ccc2nc(N)oc2c1 | LAI | PR-L010F M046I M071V I084V | cytopathic effect / MTT | 21
O=C(NCCO)c1[nH]c2ccc(Cl)cc2c1S(=O)(=O)c1ccccc1 | - | RT-Y181C | cytopathic effect / MTT | 70
CCCc1c(OC2CCCC2)c2cc(C#N)ccc2[nH]c1=O | Nevirapine-resistant (RT Y181C) | RT-Y181C | - | 28.8
CCn1c(C)c(C(=O)OC)c(C(=O)OC)c1Cc1ccccc1 | G910-6 (RT D67N K70R T215Y K219Q) | RT-D67N K70R T215Y K219Q | cytopathic effect / MTT | 2.125
CNc1nc2ccc(S(=O)(=O)N(CC(C)C)C[C@@H](O)[C@H](Cc3ccccc3)NC(=O)COc3c(C)cc([N+](=O)[O-])cc3C)cc2o1 | LAI | PR-L010F M046I M071V I084V | cytopathic effect / MTT | 55
O=c1cc(Cc2ccc3ccccc3c2)nc(SC2CCCC2)[nH]1 | MC639(RT-V179D) | RT-V179D | cytopathic effect / MTT | 11.8
CCCc1c(OCc2ccccc2)c2cc(Cl)ccc2[nH]c1=O | Nevirapine-resistant (RT Y181C) | RT-Y181C | - | >3.38
COc1ccc(S(=O)(=O)N(CC(C)C)C[C@@H](O)[C@H](Cc2ccccc2)NC(=O)[C@H](C(C)C)N2CC(=O)N(Cc3ccccc3)C2=O)cc1 | A17 (LPV-resistant) | PR-L10F V32I M46I I47V Q68E I84V | cytopathic effect / MTT | 11.8
Clc1cccc(Nn2cnc3c2CCCC3)c1 | SO561945 (RT K103N Y181C) | RT-K103N Y181C | cytopathic effect / MTT | <1
Cc1cccc(S(=O)(=O)c2c(C(=O)NCCO)[nH]c3ccc(Cl)cc23)c1 | - | RT-Y181C | cytopathic effect / MTT | 26
Cc1c(C(=O)N[C@@H](Cc2ccccc2)[C@H](O)CN(CC(C)C)S(=O)(=O)c2ccc3nc(N)oc3c2)ccc2c1OCO2 | LAI | PR-L010F M046I M071V I084V | cytopathic effect / MTT | 214
CCc1c(C)[nH]c(=O)c(SC)c1Oc1cc(C)cc(C)c1 | - | RT-K103N | cytopathic effect / MTT | 16
Cc1[nH]c(=S)n(Nc2ccccc2Cl)c1-c1ccccc1 | SO561945 (RT K103N Y181C) | RT-K103N Y181C | cytopathic effect / MTT | <6.95
CCc1c(C)[nH]c(=O)c(SCCC(N)=O)c1Oc1cc(C)cc(C)c1 | - | RT-Y181C | cytopathic effect / MTT | 64
Cc1cc(C)cc(Sc2c(C(=O)NNCCO)[nH]c3ccc(Cl)cc23)c1 | - | RT-K103N Y181C | cytopathic effect / MTT | 223
CNc1nc2ccc(S(=O)(=O)N(CC(C)C)C[C@@H](O)[C@H](Cc3ccccc3)NC(=O)COc3c(C)cccc3C)cc2o1 | LAI | PR-L010F M046I M071V I084V | cytopathic effect / MTT | 7.1
Cc1ccc(Nn2c(-c3ccccc3)c(C)[nH]c2=S)cc1Cl | SO561945 (RT K103N Y181C) | RT-K103N Y181C | cytopathic effect / MTT | <4.08
Cc1cc(C)cc(S(=O)(=O)c2c(C(=O)NCCO)[nH]c3ccc(Cl)cc23)c1 | - | RT-K103N Y181C | cytopathic effect / MTT | 375
Cc1ccc(CN2CCN([C@H](C(=O)N[C@@H](Cc3ccccc3)[C@H](O)CN(CC(C)C)S(=O)(=O)c3ccc(/C=N/O)cc3)C(C)(C)C)C2=O)cn1 | A17 (LPV-resistant) | PR-L10F V32I M46I I47V Q68E I84V | cytopathic effect / MTT | 2
CCc1c(C(C)c2c(F)cccc2F)nc(SC/C=C/c2ccc([N+](=O)[O-])cc2)[nH]c1=O | NNRTI-resistant | RT-K103N | cytopathic effect / MTT | >1437500
COc1cccc(Nn2c(-c3ccccc3)c(C)[nH]c2=S)c1 | SO561945 (RT K103N Y181C) | RT-K103N Y181C | cytopathic effect / MTT | <3.88
Cc1cc(/C=C2\C(=O)Nc3ccc(S(=O)(=O)N(CC(C)C)C[C@@H](O)[C@H](Cc4ccccc4)NC(=O)O[C@H]4CO[C@H]5OCC[C@H]54)cc32)cc(C)c1O | F | PR-L10F M46I M71V I84V | cytopathic effect / MTT | 2
NC(=O)c1[nH]c2ccc(Cl)cc2c1S(=O)(=O)c1ccccc1 | - | RT-K103N Y181C | cytopathic effect / MTT | 5000
CCc1c(C(=O)c2cc(C)cc(C)c2)n(Cc2ccncc2)c(=O)[nH]c1=O | NNRTI-resistant (RT Y181C) | RT-Y181C | - | 1.43–5.86
CCc1c(Cc2cc(Cl)cc(Cl)c2)n(COC2Cc3ccccc3C2)c(=O)[nH]c1=O | NNRTI-resistant (RT K103N Y181C) A17 | RT-K103N Y181C | cytopathic effect / MTT | >76.9
Nc1nc(NC2CC2)c2ncn([C@H]3C=C[C@@H](CO)C3)c2n1 | XM-Q151M | RT-A62V V75I F77C F116Y Q151M | p24 | 2.4
CCc1c(C)[nH]c(=O)c(C(F)(F)F)c1Oc1cc(C)cc(C)c1 | - | RT-Y188L | cytopathic effect / MTT | 64
CCC(C)c1c(OC2CCCC2)c2cc(Cl)ccc2[nH]c1=O | Nevirapine-resistant (RT Y181C) | RT-Y181C | - | 35.3
Cc1cc(C)cc(Sc2c(C(=O)NCCO)[nH]c3ccc(Cl)cc23)c1 | - | RT-Y181C | cytopathic effect / MTT | 50
Cc1ccc(S(=O)(=O)c2c(C(N)=O)[nH]c3ccc(Cl)cc23)c(C)c1 | N119 nevirapine-resistant (RT Y181C) | RT-Y181C | cytopathic effect / MTT | 37.5
CCC(C)[C@@H](C(=O)N[C@@H](Cc1ccccc1)[C@H](O)CN(CC(C)C)S(=O)(=O)c1ccc(/C=N/O)cc1)N1CCN(Cc2ccc(C)nc2)C1=O | A17 (LPV-resistant) | PR-L10F V32I M46I I47V Q68E I84V | cytopathic effect / MTT | 6.5
CCCc1c(OC2CCCC2)c2cc(OC)ccc2[nH]c1=O | Nevirapine-resistant (RT Y181C) | RT-Y181C | - | >10.6
Cc1ccc(C2CC2)c(-c2ccc3c(c2C)CCCO3)c1[C@H](OC(C)(C)C)C(=O)O | NL4-3 | INSTI-resistant (IN-E92Q) | luminescence | 1
Cc1c(N)cccc1C(=O)N[C@@H](Cc1ccccc1)[C@H](O)CN(CC(C)C)S(=O)(=O)c1ccc2nc(N)oc2c1 | LAI | PR-L010F M046I M071V I084V | cytopathic effect / MTT | 4.3
N#Cc1ccc(Nc2nc(N)nc(Oc3c(Cl)cc(Cl)cc3Cl)n2)cc1 | - | RT-Y188L | cytopathic effect / MTT | 0.4962
CCc1[nH]c(=S)n(Nc2cccc(C)c2)c1-c1ccccc1 | SO561945 (RT K103N Y181C) | RT-K103N Y181C | cytopathic effect / MTT | ≤4.18
CCC(C)[C@@H](C(=O)N[C@@H](Cc1ccccc1)[C@H](O)CN(CC1CCCC1)S(=O)(=O)c1ccc(/C=N/O)cc1)N1CCN(Cc2cnccc2C)C1=O | A17 (LPV-resistant) | PR-L10F V32I M46I I47V Q68E I84V | cytopathic effect / MTT | 1
Cc1cn([C@H]2C=C[C@@H](CO)O2)c(=O)[nH]c1=O | HXB2 | RT-T215Y | cytopathic effect / MTT | 1.1
C=C(C)COCn1c(Cc2cc(Cl)cc(Cl)c2)c(CC)c(=O)[nH]c1=O | NNRTI-resistant (RT Y181C) N119 | RT-Y181C | cytopathic effect / MTT | >83
CCC(C)[C@@H](C(=O)N[C@@H](Cc1ccccc1)[C@H](O)CN(CC(C)C)S(=O)(=O)c1ccc(/C=N/O)cc1)N1CCN(Cc2c(C)ccnc2C)C1=O | A17 (LPV-resistant) | PR-L10F V32I M46I I47V Q68E I84V | cytopathic effect / MTT | 2
Cc1cn([C@H]2C=C[C@@H](CO)O2)c(=O)[nH]c1=O | XM-AZT-resistant | RT-M41L D67N K70R T215Y K219Q | p24 | 2.3
CCCc1c(OC2CCCC2)c2cc(C)ccc2[nH]c1=O | Nevirapine-resistant (RT Y181C) | RT-Y181C | - | 5.81
Cc1ccc(C2CC2)c(-c2ccc3c(c2)CCCO3)c1[C@H](OC(C)(C)C)C(=O)O | NL4-3 | INSTI-resistant (IN-G140S Q148H) | luminescence | 1
Cc1cc(C)cc(Nn2cnc(C)c2-c2ccccc2)c1 | SO561945 (RT K103N Y181C) | RT-K103N Y181C | cytopathic effect / MTT | <1.86
O=C1Nc2ccc(Cl)cc2[C@@](C#CC2CC2)(C(F)(F)F)O1 | - | V179F/Y181C | - | 2
Cc1cccc(Nn2c(-c3ccccc3)c(C(C)C)[nH]c2=S)c1 | SO561945 (RT K103N Y181C) | RT-K103N Y181C | cytopathic effect / MTT | <1
CNc1nc2ccc(S(=O)(=O)N(CC(C)C)C[C@@H](O)[C@H](Cc3ccccc3)NC(=O)c3cccc(O)c3C)cc2o1 | LAI | PR-L010F M046I M071V I084V | cytopathic effect / MTT | 224
C#CCOCn1c(Cc2cc(Cl)cc(Cl)c2)c(CC)c(=O)[nH]c1=O | NNRTI-resistant (RT Y181C) N119 | RT-Y181C | cytopathic effect / MTT | 600
S=c1[nH]c(-c2ccccc2)c(-c2ccccc2)n1Nc1cccc(Cl)c1 | SO561945 (RT K103N Y181C) | RT-K103N Y181C | cytopathic effect / MTT | <1
CC(=O)OCC1=C[C@@H]2C(=O)[C@]3(C=C(C)[C@H](OC(C)=O)[C@@]3(O)[C@@H]1OC(C)=O)[C@H](C)C[C@@H]1[C@H]2C1(C)C | HE | Nevirapine resistant | cytopathic effect / MTT | 1.31
COCc1cccc(CN2CCN([C@H](C(=O)N[C@@H](Cc3ccccc3)[C@H](O)CN(CC(C)C)S(=O)(=O)c3ccc(/C=N/O)cc3)C(C)(C)C)C2=O)n1 | A17 (LPV-resistant) | PR-L10F V32I M46I I47V Q68E I84V | cytopathic effect / MTT | 1.25
Cc1ccc(S(=O)(=O)c2c(C(=O)NNCCO)[nH]c3ccc(Cl)cc23)cc1 | - | RT-Y181C | cytopathic effect / MTT | 5
COc1ccc(/C=C/CSc2nc(Cc3c(F)cccc3F)c(C)c(=O)[nH]2)cc1 | NNRTI-resistant | RT-Y188L | cytopathic effect / MTT | >9139
CCc1c(C)[nH]c(=O)c(Cl)c1Oc1cc(C)cc(C)c1 | - | RT-Y188L | cytopathic effect / MTT | 16
CCC(C)[C@@H](C(=O)N[C@@H](Cc1ccccc1)[C@H](O)CN(CC(C)C)S(=O)(=O)c1ccc(/C=N/O)cc1)N1CCN(Cc2cccc(COC)n2)C1=O | A17 (LPV-resistant) | PR-L10F V32I M46I I47V Q68E I84V | cytopathic effect / MTT | 1
COc1cc2c(cc1Cc1cccc(Cl)c1F)c(=O)c(C(=O)O)cn2[C@H](CO)C(C)C | NL4-3 | Y99H | luminescence | 1
Cc1ccccc1S(=O)(=O)c1c(C(=O)NCCO)[nH]c2ccc(Cl)cc12 | - | RT-K103N Y181C | cytopathic effect / MTT | 387
Cc1cccc(C)c1OCC(=O)N[C@@H](Cc1ccccc1)[C@H](O)CN(CC(C)C)S(=O)(=O)c1ccc2nc(N)oc2c1 | LAI | PR-L010F M046I M071V I084V | cytopathic effect / MTT | 8.5